Measured values from several laboratories, pooled; numbers as filed in NIAID ChemDB.

All rows: tests in culture; species: Hepatitis B virus; cells: HepG2.2.15; endpoint: EC50

Conditions beyond the fields shown may differ between rows.

| compound | method | setting | value |
|---|---|---|---|
| O=c1ccc2ccccc2[se]1 | PCR |  | >50 µM |
| [N-]=[N+]=N[C@@H]1C[C@@H](n2cc(F)c(N)nc2=O)O[C@H]1CO |  |  | 0.11 µM |
| C[C@H]1[C@H](C)C[C@@H](C(=O)O[C@@H]2O[C@H](CO[C@@H]3O[C@H](CO)[C@@H](O[C@@H]4O[C@H](C)[C@H](O)[C@@H](O)[C@H]4O)[C@H](O)[C@H]3O)[C@@H](O)[C@H](O)[C@H]2O)C2CC[C@]3(C)C(=CC[C@@H]4[C@@]5(C)C[C@@H](O)[C@H](O)[C@@](C)(CO)[C@@H]5CC[C@]43C)[C@H]21 | antigen | 14 d | 67.8 µM |
| CC(=O)[C@]1(O)CC[C@@]2(O)[C@]1(C)[C@H](OC(=O)/C=C(\C)C(C)C)CC1[C@@]3(C)CC[C@H](OC(=O)/C=C/c4ccc(Cl)c([N+](=O)[O-])c4)CC3=CC[C@]12O | ELISA |  | >79.52 µM |
| Nc1nc(=O)n([C@@H]2CC[C@H](CO)O2)cc1F |  |  | 0.1 µM |
| O=C(C=Cc1ccc(O)c(O)c1)O[C@@H]1C[C@](O)(C(=O)O)C[C@@H](O)[C@H]1O |  |  | >1380 µM |
| O=C(/C=C/c1ccc(O)c(O)c1)[Se]c1ccccc1 | PCR |  | 2.4 µM |
| CC(=O)[C@]1(O)CC[C@@]2(O)[C@]1(C)[C@H](OC(=O)/C=C(\C)C(C)C)CC1[C@@]3(C)CC[C@H](OC(=O)/C=C/c4cccc(F)c4F)CC3=CC[C@]12O | ELISA |  | >16.36 µM |
| C[N+](C)(O)CCc1c[nH]c2ccc(O)cc12 | PCR / fluorescence |  | <1 µM |
| CCOC(=O)c1ccc(O)cc1 | ELISA / antigen |  | <44.88 µM |
| O[N+](CCc1c[nH]c2ccccc12)(Cc1ccccc1)Cc1ccccc1 | PCR / fluorescence |  | >100 µM |
| Nc1ncnc2c1ncn2[C@H]1C[C@H](O)[C@@H](COP([O-])(=S)O[C@H]2C[C@H](n3ccc(=O)[nH]c3=O)O[C@@H]2CO)O1 |  |  | 0.3 µM |
| Nc1ncnc2c1ncn2[C@@H]1CC[C@H](CO)O1 |  |  | 5 µM |
| CCOC(=O)/C=C/c1ccc(O)cc1 | PCR |  | 1050 µM |
| O=C(/C=C/c1ccc(O)c(O)c1)O[C@@H]1[C@H](O)C[C@@](O)(C(=O)O)C[C@H]1OC(=O)/C=C/c1ccc(O)c(O)c1 | ELISA / antigen |  | 71.6 µM |
| COc1cc2ccc(=O)oc2cc1O | PCR |  | 682 µM |
| O[N+](CCc1c[nH]c2ccccc12)(CC1CC1)CC1CC1 | PCR / fluorescence |  | >100 µM |
| Nc1ncnc2c1ncn2[C@@H]1C[C@@H](N)[C@H](CO)O1 |  |  | >10 µM |
| O=C(/C=C/c1ccc(O)c(O)c1)O[C@@H]1[C@@H](OC(=O)/C=C/c2ccc(O)c(O)c2)C[C@@](O)(C(=O)O)C[C@@H]1O | ELISA / antigen |  | 202.7 µM |
| O=c1ccc2ccc(O)cc2o1 | ELISA / antigen |  | 717 µM |
| COC(=O)[C@]1(O)C[C@H](OC(=O)/C=C/c2ccc(O)c(O)c2)[C@@H](O)[C@@H](O)C1 | ELISA / antigen |  | 2490 µM |
| CO[C@@H]1[C@H](OP(O)(=S)OC[C@H]2O[C@@H](n3cnc4c(N)ncnc43)C[C@@H]2O)[C@@H](CO)O[C@H]1n1ccc(=O)[nH]c1=O |  |  | 0.213 µM |
| O=C(/C=C/c1ccc(O)c(O)c1)OC1[C@@H](O)CC(O)(C(=O)O)C[C@@H]1O | ELISA / antigen |  | >1580 µM |
| CC(=O)[C@]1(O)CC[C@@]2(O)[C@]1(C)[C@H](OC(=O)/C=C(\C)C(C)C)CC1[C@@]3(C)CC[C@H](OC(=O)/C=C/c4ccccc4F)CC3=CC[C@]12O | PCR |  | 40.62 µM |
| CC(C)=CC/C=C(/C)[C@H]1CC[C@]2(C)[C@@H]1[C@H](O)C[C@@H]1[C@@]3(C)CC[C@H](O)C(C)(C)[C@@H]3[C@@H](OC3OC(CO)C(O)C(O)C3O)C[C@]12C | PCR | 2 d | 4.299 µM |
| O=C(/C=C/c1ccccc1)[Se]c1ccccc1 | PCR |  | 1.6 µM |

A second listing of 2 rows from above:

compound | method | setting | value
Nc1ncnc2c1ncn2[C@@H]1C[C@@H](N)[C@H](CO)O1 |  |  | >10 µM
COC(=O)[C@]1(O)C[C@H](OC(=O)/C=C/c2ccc(O)c(O)c2)[C@@H](O)[C@@H](O)C1 | ELISA / antigen |  | 2490 µM

An empty or dashed field is not shown. ECn is the concentration giving n% inhibition of infection, replication or growth.